Legend:
[1] = tested on: Plasmodium falciparum; test: ST_JUDE: Plasmodium falciparum K1 EC50 (uM) as measured by SYBR green dye; format: functional, organism-based
[2] = tested on: Plasmodium falciparum; test: ST_JUDE: Plasmodium falciparum 3D7 EC50 (uM) as measured by SYBR green dye; format: functional, organism-based

Structure (SMILES): COc1ccc2c3c1O[C@H]1[C@]4(OC)CC[C@@]5(C[C@@H]4CNC(=O)/C=C/c4ccccc4[N+](=O)[O-])[C@@H](C2)N(C)CC[C@]315
- EC50 [1]: 3.57 µM
- EC50 [2]: 2.47 µM
